Source: US6177441A, “Treating red blood cell solutions with anti-viral agents” (Cerus Corporation, priority 1998, dated 2001)
Like-named read-outs stand apart in the source and are kept apart here.

Key:
cell-free HIV = experiment: Cell-free HIV inactivation in the presence of red blood cells (Example 9); type: cell-based; conditions: 0 μg/ml 5.7
[1] = system: duck hepatitis B virus (DHBV); experiment: Inactivation of duck hepatitis B virus, slot blot and PCR in duck hepatocytes (Example 6); conditions: for DHBV inactivated: viral titer 6 logs per ml
cell-associated HIV [2] = experiment: Cell-associated HIV inactivation in the presence of red blood cells (Example 9); type: cell-based, HIVIIIB; conditions: 0 μg/ml 5.5 (QM), 5.7 (ICR-170)
cell-associated HIV [3] = conditions: for Log Titer: no QM 5.5
[4] = 10 μg/ml QM, dilution 10^-3, 10 days, plates 53, 54

## COc1ccc2nc3cc(Cl)ccc3c(NC(C)CCCN(CCCl)CCCl)c2c1.Cl.Cl (centres unmarked)
cell-free HIV; 20 μg/ml
  Log Titer: 3.0 pfu/ml
cell-free HIV; 40 μg/ml
  Log Titer: 0 pfu/ml
cell-free HIV; 80 μg/ml
  Log Titer: 0 pfu/ml
[1]; 10 μg/ml QM, dilution 10^-2, 1 day, plate 57
  PCR Results: -
[1]; 10 μg/ml QM, dilution 10^-2, 1 day, plates 57, 58
  Blot Results: -, -
[1]; 10 μg/ml QM, dilution 10^-2, 10 days, plate 60
  PCR Results: +
[1]; 10 μg/ml QM, dilution 10^-2, 10 days, plates 59, 60
  Blot Results: -, -
[1]; 10 μg/ml QM, dilution 10^-2, 15 days, plate 61
  PCR Results: +
[1]; 10 μg/ml QM, dilution 10^-2, 15 days, plates 61, 62
  Blot Results: -, -
[1]; [4]
  Blot Results: -, -
  PCR Results: -, -
[1]; 10 μg/ml QM, dilution 10^-3, 15 days, plate 56
  PCR Results: -
[1]; 10 μg/ml QM, dilution 10^-3, 15 days, plates 55, 56
  Blot Results: -, -
[1]; 10 μg/ml QM, dilution 10^-4, 10 days, plate 50
  PCR Results: -
[1]; 10 μg/ml QM, dilution 10^-4, 10 days, plates 49, 50
  Blot Results: -, -
[1]; 10 μg/ml QM, dilution 10^-4, 15 days, plates 51, 52
  Blot Results: -, -
[1]; 10 μg/ml QM, dilution 10^-5, 10 days, plates 45, 46
  Blot Results: -, -
[1]; 10 μg/ml QM, dilution 10^-5, 15 days, plates 47, 48
  Blot Results: -, -
[1]; 10 μg/ml QM
  DHBV inactivated: 4 logs per ml
[1]; 40 μg/ml QM, dilution 10^-1, 1 day, plate 40
  PCR Results: -
[1]; 40 μg/ml QM, dilution 10^-1, 1 day, plates 39, 40
  Blot Results: -, -
[1]; 40 μg/ml QM, dilution 10^-1, 10 days, plate 41
  PCR Results: -
[1]; 40 μg/ml QM, dilution 10^-1, 10 days, plates 41, 42
  Blot Results: -, -
[1]; 40 μg/ml QM, dilution 10^-1, 15 days, plate 43
  PCR Results: -
[1]; 40 μg/ml QM, dilution 10^-1, 15 days, plates 43, 44
  Blot Results: -, -
[1]; 40 μg/ml QM, dilution 10^-2, 10 days, plate 35
  PCR Results: -
[1]; 40 μg/ml QM, dilution 10^-2, 10 days, plates 35, 36
  Blot Results: -, -
[1]; 40 μg/ml QM, dilution 10^-2, 15 days, plate 37
  PCR Results: -
[1]; 40 μg/ml QM, dilution 10^-2, 15 days, plates 37, 38
  Blot Results: -, -
[1]; 40 μg/ml QM, dilution 10^-3, 10 days, plate 31
  PCR Results: -
[1]; 40 μg/ml QM, dilution 10^-3, 10 days, plates 31, 32
  Blot Results: -, -
[1]; 40 μg/ml QM, dilution 10^-3, 15 days, plate 33
  PCR Results: -
[1]; 40 μg/ml QM, dilution 10^-3, 15 days, plates 33, 34
  Blot Results: -, -
[1]; 40 μg/ml QM, dilution 10^-4, 10 days, plates 27, 28
  Blot Results: -, -
[1]; 40 μg/ml QM, dilution 10^-4, 15 days, plates 29, 30
  Blot Results: -, -
[1]; 40 μg/ml QM, dilution 10^-5, 10 days, plates 23, 24
  Blot Results: -, -
[1]; 40 μg/ml QM, dilution 10^-5, 15 days, plates 25, 26
  Blot Results: -, -
[1]; 40 μg/ml QM
  DHBV inactivated: > 6 logs of DHBV per ml
cell-associated HIV [2]; 20 μg/ml
  Log Titer: 3.6
cell-associated HIV [2]; 40 μg/ml
  Log Titer: 2.5
cell-associated HIV [3]; 10 μg/ml
  Log Titer: < 0.7
cell-associated HIV [3]; 30 μg/ml
  Log Titer: < 0.3
cell-associated HIV [3]; 150 μg/ml
  Log Titer: < 0.3
cell-associated HIV [3]; concentrations such as 10 μg/ml and below
  cell-associated HIV inactivation: inactivates cell-associated HIV
